≈ marks a conversion by molar mass, not a printed value.
Tests used:
[1] = tested on: Salmonella typhimurium DT104a (BM638); experiment: Minimum bactericidal concentration (MBC)
Bacillus cereus (BM629) = experiment: Minimum bactericidal concentration (MBC)
[2] = tested on: Salmonella typhimurium SF1399 (BM352); experiment: Minimum bactericidal concentration (MBC)
[3] = tested on: Yersinia enterocolitica (DSM 4780); experiment: Minimum bactericidal concentration (MBC)
S. typhimurium SF1399 [4] = experiment: DiSC3(5) membrane depolarization assay; conditions: S. typhimurium SF1399, 30 min; LFchimera at 12.5 μM; Fig. 2e
B. cereus [5] = experiment: DiSC3(5) membrane depolarization assay; conditions: 0-12.5 μM, 30 min, LFchimera statement at 3.1 μM, Fig. 2b
Y. enterocolitica [6] = experiment: DiSC3(5) membrane depolarization assay; conditions: 0-12.5 μM, 30 min, LFchimera statement at 3.1 μM, Fig. 2c
Y. pseudotuberculosis [7] = experiment: DiSC3(5) membrane depolarization assay; conditions: 30 min, LFchimera at 12.5 μM, Fig. 2d
S. typhimurium DT104a [8] = experiment: DiSC3(5) membrane depolarization assay; conditions: 30 min, LFchimera at 12.5 μM, Fig. 2f
[9] = tested on: isolates of Burkholderia pseudomallei including B. pseudomallei 979b; conditions: ref Puknun et al. [2016], cited from earlier work
S. typhimurium SF1399 [10] = experiment: Propidium iodide (PI) membrane permeabilization assay; conditions: S. typhimurium SF1399 ~10^8 CFU/ml in PPB, 10 μM PI, 1 h, 0.1-12.5 μM; Fig. 1e
B. cereus [11] = experiment: as above; conditions: B. cereus ~10^8 CFU/ml in PPB, 10 μM PI, 1 h, 0.1-12.5 μM; Fig. 1b
Y. enterocolitica [12] = experiment: as above; conditions: Y. enterocolitica ~10^8 CFU/ml in PPB, 10 μM PI, 1 h, 0.1-12.5 μM; Fig. 1c
Y. pseudotuberculosis [13] = experiment: as above; conditions: Y. pseudotuberculosis ~10^8 CFU/ml in PPB, 10 μM PI, 1 h, 0.1-12.5 μM; Fig. 1d
S. typhimurium DT104a [14] = experiment: as above; conditions: S. typhimurium DT104a ~10^8 CFU/ml in PPB, 10 μM PI, 1 h, 0.1-12.5 μM; Fig. 1f

Row | Structure (SMILES) | MBC against S. typhimurium DT104a [1] [µM] | MBC against B. cereus (Bacillus cereus (BM629)) [µM] | MBC against S. typhimurium SF1399 [2] [µM] | MBC against Y. enterocolitica [3] [µM] | further results
1 | CC[C@H](C)[C@H](NC(=O)[C@H](CC(C)C)NC(=O)[C@@H](N)CC(=O)O)C(=O)N[C@@H](Cc1c[nH]c2ccccc12)C(=O)N[C@@H](CCCCN)C(=O)N[C@@H](CC(C)C)C(=O)N[C@@H](CC(C)C)C(=O)N[C@@H](CO)C(=O)N[C@@H](CCCCN)C(=O)N[C@@H](C)C(=O)N[C@@H](CCC(N)=O)C(=O)N[C@@H](CCC(=O)O)C(=O)N[C@@H](CCCCN)C(=O)N[C@@H](Cc1ccccc1)C(=O)NCC(=O)N[C@@H](CCCCN)C(=O)N[C@@H](CC(N)=O)C(=O)N[C@@H](CCCCN)C(=O)N[C@@H](CO)C(=O)N[C@@H](CCCNC(=N)N)C(=O)O | 6.3 (≈ 15.1 µg/mL) | 25 (≈ 59.7 µg/mL) | 12.5 (≈ 29.9 µg/mL) | 6.3 (≈ 15.1 µg/mL) | 
2 | CC[C@H](C)[C@H](NC(=O)[C@H](CC(C)C)NC(=O)[C@@H](N)CC(=O)O)C(=O)N[C@@H](Cc1c[nH]c2ccccc12)C(=O)N[C@@H](CCCCN)C(=O)N[C@@H](CC(C)C)C(=O)N[C@@H](CC(C)C)C(=O)N[C@@H](CO)C(=O)N[C@@H](CCCCN)C(=O)N[C@@H](C)C(=O)N[C@@H](CCC(N)=O)C(=O)N[C@@H](CCC(=O)O)C(=O)N[C@@H](CCCCN)C(=O)N[C@@H](Cc1ccccc1)C(=O)NCC(=O)N[C@@H](CCCCN)C(=O)N[C@@H](CC(N)=O)C(=O)N[C@@H](CCCCN)C(=O)N[C@@H](CO)C(=O)N[C@@H](CCCNC(=N)N)C(=O)NCCCC[C@H](NC(=O)CNC(=O)[C@H](CC(C)C)NC(=O)[C@H](CCCCN)NC(=O)[C@H](CCCCN)NC(=O)[C@H](CCSC)NC(=O)[C@H](CCCNC(=N)N)NC(=O)[C@H](Cc1c[nH]c2ccccc12)NC(=O)[C@H](CCC(N)=O)NC(=O)[C@H](Cc1c[nH]c2ccccc12)NC(=O)[C@H](CCCNC(=N)N)NC(=O)[C@H](CCCNC(=N)N)NC(=O)[C@H](CS)NC(=O)[C@H](CCCCN)NC(=O)[C@@H](N)Cc1ccccc1)C(N)=O |  |  |  |  | Increase in DiSC3(5) fluorescence (S. typhimurium SF1399 [4]): approximately 25%; DiSC3(5) fluorescence (membrane depolarization), in words (B. cereus [5]): relative high DiSC3(5) fluorescence; DiSC3(5) fluorescence (membrane depolarization), in words (Y. enterocolitica [6]): relative high DiSC3(5) fluorescence; DiSC3(5) fluorescence compared to the control (Y. pseudotuberculosis [7]): 180%; Increase in DiSC3(5) fluorescence (S. typhimurium DT104a [8]): approximately 25%; Concentration killing all B. pseudomallei isolates ([9]; within 2 h, all isolates including CAZ-resistant 979b): 5 to 10 µM; PI fluorescence (membrane permeabilization), in words (S. typhimurium SF1399 [10]): strongest increase; PI fluorescence (membrane permeabilization), in words (B. cereus [11]): comparable to LFampin265–284; PI fluorescence (membrane permeabilization), in words (Y. enterocolitica [12]): strongest increase; PI fluorescence (membrane permeabilization), in words (Y. pseudotuberculosis [13]): strongest increase; PI fluorescence (membrane permeabilization), in words (S. typhimurium DT104a [14]): strongest increase
3 | CC[C@H](C)[C@H](NC(=O)[C@H](CC(C)C)NC(=O)[C@@H](N)CC(=O)O)C(=O)N[C@@H](Cc1c[nH]c2ccccc12)C(=O)N[C@@H](CCCCN)C(=O)N[C@@H](CC(C)C)C(=O)N[C@@H](CC(C)C)C(=O)N[C@@H](CO)C(=O)N[C@@H](CCCCN)C(=O)N[C@@H](C)C(=O)N[C@@H](CCC(N)=O)C(=O)N[C@@H](CCC(=O)O)C(=O)N[C@@H](CCCCN)C(=O)N[C@@H](Cc1ccccc1)C(=O)NCC(=O)N[C@@H](CCCCN)C(=O)N[C@@H](CC(N)=O)C(=O)N[C@@H](CCCCN)C(=O)N[C@@H](CO)C(=O)N[C@@H](CCCCN)C(=O)O | 12.5 (≈ 29.5 µg/mL) | 25 (≈ 59 µg/mL) | 25 (≈ 59 µg/mL) | 6.3 (≈ 14.9 µg/mL) | 
4 | CC[C@H](C)[C@H](NC(=O)[C@H](CC(C)C)NC(=O)[C@@H](N)CC(=O)O)C(=O)N[C@@H](Cc1c[nH]c2ccccc12)C(=O)N[C@@H](CCCNC(=N)N)C(=O)N[C@@H](CC(C)C)C(=O)N[C@@H](CC(C)C)C(=O)N[C@@H](CO)C(=O)N[C@@H](CCCNC(=N)N)C(=O)N[C@@H](C)C(=O)N[C@@H](CCC(N)=O)C(=O)N[C@@H](CCC(=O)O)C(=O)N[C@@H](CCCNC(=N)N)C(=O)N[C@@H](Cc1ccccc1)C(=O)NCC(=O)N[C@@H](CCCCN)C(=O)N[C@@H](CC(N)=O)C(=O)N[C@@H](CCCNC(=N)N)C(=O)N[C@@H](CO)C(=O)N[C@@H](CCCNC(=N)N)C(=O)O | 1.6 (≈ 4 µg/mL) | 12.5 (≈ 31.3 µg/mL) | 3.1 (≈ 7.76 µg/mL) | 3.1 (≈ 7.76 µg/mL) | 
5 | CC(C)(O/N=C(\C(=O)N[C@@H]1C(=O)N2C(C(=O)[O-])=C(C[n+]3ccccc3)CS[C@H]12)c1csc(N)n1)C(=O)O |  |  |  |  | Effect on B. pseudomallei strains, in words ([9]; overgrowth in 24 h): only inhibited
